Data on 9 molecules can be found in PMC11091879, “Inhibitors of the Thioesterase Activity of Mycobacterium tuberculosis Pks13 Discovered Using DNA-Encoded Chemical Library Screening” (ACS Infectious Diseases, 2024).

The chains behind the UniProt entries cited, without tags or fusion partners. Residues count along the entry.
UniProt I6X8D2, 1451-1733 limits assumed: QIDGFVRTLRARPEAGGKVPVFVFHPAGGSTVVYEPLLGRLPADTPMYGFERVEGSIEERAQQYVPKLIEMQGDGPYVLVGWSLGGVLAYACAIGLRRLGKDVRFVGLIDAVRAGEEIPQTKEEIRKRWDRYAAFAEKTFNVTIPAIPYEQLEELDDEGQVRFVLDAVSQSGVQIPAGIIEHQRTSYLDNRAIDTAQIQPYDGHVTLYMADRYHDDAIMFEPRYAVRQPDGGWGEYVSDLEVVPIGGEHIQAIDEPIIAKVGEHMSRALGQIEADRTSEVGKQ

Molecules are shown by their SMILES. Like-named read-outs stand apart in the source and are kept apart here.

The target of one assay is Pks13-TE (Mycobacterium tuberculosis, UniProt I6X8D2). As to the kind of experiment: TAMRA-FP affinity probe competition binding assay (fluorescence polarization). Conditions: assay not given. As to the method:
The competition binding assay was used to assess compound biochemical activity. ActivX TAMRA-FP Serine Hydrolase Probe was purchased from ThermoFisher. Covalent binding of the probe to Pks13-TE was used to read fluorescence polarization and set up the assay based on that signal.[38] The assay was done in all-black 384-well plates in a total volume of 25 μL. Pks13-TE in 100 mM Na phosphate buffer at pH 7.4 with 1.6 mM CHAPS at final concentration of 2 μM was preincubated with compounds for 10 min at RT, then TAMRA fluorescent probe was added to a final concentration of 80 nM, mixed and incubated for 40 min, followed by measuring fluorescence polarization signal at excitation 540 nm and emission of 590 nm on Clariostar BMG Plate reader. Percent inhibition for the dose-response plots was calculated using 2% final DMSO as a negative control and 20 μM TAM16 as a positive control.
(Fluorescence polarisation rises when a labelled molecule tumbles more slowly, as on binding a larger partner.)

For another assay, the system named is WT H37Rv. The assay can be described thus: MIC determination, wild-type Mtb H37Rv. It counts as cell-based, Mycobacterium tuberculosis. Conditions: for WT H37Rv MIC: Table S5, series 3.

Molecule `CCC(C)(C)c1ccc(S(=O)(=O)N[C@H](CCc2nc(N(C)C)no2)Cc2c[nH]c3ccccc23)cc1` came in with an IC50 on Pks13-TE (Table S5, series 3) of 1980 nM. Also, on Pks13-TE (read-out: enzyme potency / IC50), the IC50 stood at 2000 nM. Moreover, in the assay on WT H37Rv, the “activity against Mtb growth” value is on record as “not active against Mtb” and the “WT H37Rv MIC” value was above 125 µM.
`Cc1noc(CC[C@H](Cc2ccccc2)NS(=O)(=O)c2ccc(C3CC3)cc2)n1` came in with an IC50 at Pks13-TE (Table S5, series 3) of 3840 nM. In addition, the “WT H37Rv MIC” value with WT H37Rv was above 125 µM.
On Pks13-TE (Table S5, series 3), `CCC(C)(C)c1ccc(S(=O)(=O)N[C@H](CCc2nc(N(C)C)no2)Cc2ccccc2)cc1` gave an IC50 of 5390 nM.
In turn, `CCC(C)(C)c1ccc(S(=O)(=O)N[C@@H](Cc2ccccc2)[C@@H](O)Cc2nc(C)no2)cc1` returned an IC50 at Pks13-TE (Table S5, series 3) of 730 nM. Further, in the assay on WT H37Rv, the “WT H37Rv MIC” value was above 125 µM.
The matching figures for `CCC(C)(C)c1ccc(S(=O)(=O)N(C)[C@H](CCc2nc(N(C)C)no2)Cc2c[nH]c3ccccc23)cc1`: 580 nM and above 125 µM.
`CCC(C)(C)c1ccc(S(=O)(=O)N[C@H](CCc2nc(C)no2)Cc2ccccc2)cc1` registered an IC50 on Pks13-TE (Table S5, series 3) of 780 nM. The “WT H37Rv MIC” value in the assay with WT H37Rv is above 125 µM.
The matching figures for `CCC(C)(C)c1ccc(S(=O)(=O)N[C@@H](CCc2nc(N(C)C)no2)Cc2c[nH]c3ccccc23)cc1`: above 20000 nM and above 250 µM.
The matching figures for `CCC(C)(C)c1ccc(S(=O)(=O)N[C@H](CCc2nc(C)no2)Cc2c[nH]c3ccccc23)cc1`: 890 nM and above 250 µM.
For `Cc1noc(CC[C@H](Cc2ccccc2)NS(=O)(=O)c2ccc(Cl)cc2)n1`, in that order: 16900 nM and above 125 µM.
